# PubChem BioAssay AID504761 | Drosophila RNAi Screening Center | 2011
# Aim: 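Insect host genes that dengue virus relies on to spread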 (primary screen)
# System: D.Mel-2 cells from Drosophila
# Reagents: long dsRNA against Drosophila genes
# Treatment: infection with dengue virus type 2; dose and infection time not stated
# Measurement: 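Cells stained for dengue envelope protein and imaged; percent of infected cells per well on duplicate plates, ranked by infection, with stained nuclei counted for cell number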
# Direction: infection score: higher = more virus-infected cells; cell count: higher = more cells in the well
# Active means: 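Low infection ranks in the two replicates (chance level up to 0.065) followed by a retest with a 1.5-fold or larger significant decrease, p below 0.05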
# Calls: active = confirmed: knock-down lowers infection; inactive = not picked or not confirmed
# The screen tested about 22,000 reagents; below is a random part of those that have a named target and a result. Over the whole deposit, 116 (0.52%) got an active call. 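Calls depend on retest data that are not deposited; infection was ranked per plate without normalising between plates; the unit of the infection score is not given.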 The raw values are shown without normalisation. A number with no mark means an inactive call. No sequences are given here. Not stated in the record: the amount of reagent, the time to read-out.
target gene,DRSC id,"infection score, replicate 1","infection score, replicate 2","cell count, replicate 1","cell count, replicate 2"
CG8500 (GeneID 41203),DRSC16434,3.84,2.35,6298,6385
CG8500 (GeneID 41203),DRSC27083,5.45,5.72,6656,6464
NTPase (GeneID 33495),DRSC00761,5.04,6.2,6355,5818
NTPase (GeneID 33495),DRSC26233,9.91,12.5,4653,6083
trv (GeneID 43362),DRSC13846,10.2,6.01,5578,5306
trv (GeneID 43362),DRSC14560,,1.27,310,7028
trv (GeneID 43362),DRSC14561,3.46,1.43,6563,558
trv (GeneID 43362),DRSC25527,14.2,10.2,5985,6253
trv (GeneID 43362),DRSC25789,1.14,6.94,6394,6552
Acsf2 (GeneID 33766),DRSC02172,4.85,4.36,5983,6392
Acsf2 (GeneID 33766),DRSC27832,3.89,16.7,6402,6403
CG31106 (GeneID 318594),DRSC14655,1.71,3.05,6663,5929
Nmt (GeneID 38909),DRSC11236,3.14,3.59,5228,5324
alpha4GT1 (GeneID 33512),DRSC00488,4.2,1.81,6186,6124
f (GeneID 32718),DRSC19174,2.25,5.55,6262,5878
f (GeneID 32718),DRSC19516,19.4,2.99,4197,6590
f (GeneID 32718),DRSC20331,0.6,5,6501,6516
f (GeneID 32718),DRSC25251,2.25,4.76,6097,6025
f (GeneID 32718),DRSC28735,15.5,13.3,5252,4504
Sema2b (GeneID 246538),DRSC05609,1.05,1.28,6211,6105
Sema2b (GeneID 246538),DRSC06867,27.9,13.2,5283,6025
Sema2b (GeneID 246538),DRSC24672,4.07,2.48,6480,6205
chn (GeneID 36678),DRSC06086,29.5,5.55,5653,6220
chn (GeneID 36678),DRSC29342,20.3,12.2,5228,3959

Targets above whose target name begins with A or a (3):
target gene,DRSC id,"infection score, replicate 1","infection score, replicate 2","cell count, replicate 1","cell count, replicate 2"
Acsf2 (GeneID 33766),DRSC02172,4.85,4.36,5983,6392
Acsf2 (GeneID 33766),DRSC27832,3.89,16.7,6402,6403
alpha4GT1 (GeneID 33512),DRSC00488,4.2,1.81,6186,6124
